No end group written: not given here.
Legend:
Format in all cases: cell-based
Conditions in all cases: calculated based on HC50 values (pig erythrocytes) and MIC; ratio HC50 / MIC
[1] = tested on: Escherichia coli (D31); assay: Growth inhibition assay (MIC), E. coli
Method: (§1) The minimal inhibitory concentration (MIC) of each AMPs was determined against the Gram-positive bacteria Listeria monocytogenes (DSM20600), L. grayi (DSM20601), L. fleischmannii (DSM24998), Staphylococcus aureus (DSM2569) and Micrococcus luteus (DSM20030), and the Gram-negative species Escherichia coli (D31) and Pseudomonas aeruginosa (DSM50071). The scorpion peptides were prepared at concentrations of 0.015–250 μM. The assays were carried out in 384-well plates (Greiner Bio One, Frickenhausen, Germany) using Brain Heart Infusion Broth (BHIB) medium for Listeria spp., Tryptic Soy Broth (TSB) for S. aureus, and lysogeny broth (LB) for the others. The bacteria were cultivated overnight at either 37 °C (Listeria spp., S. aureus, E. coli and P. aeruginosa) or 30 °C (M. luteus) and subcultured in fresh media before the growth inhibition assays. Growth inhibition was measured as previously described.

[2] = tested on: Staphylococcus aureus (DSM2569); assay: Growth inhibition assay (MIC), S. aureus
Method: as §1

[3] = tested on: Listeria monocytogenes (DSM20600); assay: Growth inhibition assay (MIC), L. monocytogenes
Method: as §1

Substance	Therapeutic index (TI) E. coli [1]	Therapeutic index (TI) S. aureus [2]	Therapeutic index (TI) L. monocytogenes [3]
FLSTIWNGIKGLL-NH2 [Uy192]	10.37	10.37	19.45
FLSTIWNGIKSLF-NH2 [D2]		3.06	1.63
FPFLKLSLKIPKSAIKSAIKRL-NH2 [D10]	215.75		57.53
FPFLLSLIPSAISAIKRL-NH2 [Uy234]			52.25
GFWGKLLEGVKKAI-NH2 [D5]	109.06		109.06
GFWGKLWEGVKNAI-NH2 [UyCT1]	35.62		35.62
GFWGKLWEGVKNAIKKK-NH2 [D11]	277.5		555
GFWGKLWEGVKSAI-NH2 [Um3]	8.41	8.41	15.77
IFGAIWSGIKSLF-NH2 [D1]	5.99		11.99
IFKAIWSGIKSLF-NH2 [Um5]	3.95		29.62
ILSAIWSGIKGLL-NH2 [Uy17]		4.61	9.22
ILSAIWSGIKSLF-NH2 [UyCT3]	7.26		14.53
IWSAIWSGIKGLL-NH2 [UyCT5]	1.37	2.57	5.14

Reference: publication PMC5308254, “Bioactivity of Natural and Engineered Antimicrobial Peptides from Venom of the Scorpions Urodacus yaschenkoi and U. manicatus” (Toxins, 2017)
